This is an account of results in ChEMBL document CHEMBL2177030.

The assay deals with Mycobacterium tuberculosis. The assay is described as follows: Inhibition of Mycobacterium tuberculosis LipY assessed as residual enzyme activity pre-incubated for 30 mins with enzyme before substrate addition by pH-stat technique.

For `CCCCCCCCCCCCCCCCOP1(=O)CCCC(C(=O)OC)=C(C)O1` (stereo unspecified), the Activity worked out at 6%.
